PubChem BioAssay AID1259414 | Drosophila RNAi Screening Center – 2018

- Purpose: 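Fly genes that alter Wolbachia amount inside host cells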 (primary screen)
- System: Drosophila JW18 cells infected with Wolbachia
- Knock-down reagent: long dsRNA against Drosophila genes, 0.25 µg dsRNA per well of a 384-well plate
- Time to read-out: 5 days
- Conditions: cells persistently infected with Wolbachia before knock-down; no added drug
- Measured: 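Automated imaging of bacterial rRNA staining divided by host cell count, reported as plate-normalised robust z-score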
- Scale: Wolbachia per cell robust z: higher = more Wolbachia per host cell than the plate typical
- Hit rule: 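Hit when robust z is 1.5 or more, or -1.5 or less, in at least two of three replicates; excludes dsRNAs with several or no targets, genes not expressed in JW18 and well A1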
In all, the deposit lists about 24,000 reagents; this is an unselected part of those that have a named target and a result. Over the whole deposit, about 1,210 (5%) were called active. 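Inactive calls also include excluded dsRNAs with several or no targets, genes unexpressed in JW18, and well A1, regardless of score.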 A plus sign joins genes that one reagent is predicted to hit.

predicted target	amplicon	Wolbachia per cell robust z, rep 1	Wolbachia per cell robust z, rep 2	Wolbachia per cell robust z, rep 3	call
CG16888 (GeneID 34789)	DRSC02541	-0.135	0.094	1.12	inactive
CG7745 (GeneID 36210)	DRSC23103	0.111	-2.07	1.63	inactive
CG7745 (GeneID 36210)	DRSC29591	-4.82	-0.312	-3.01	active
CG7080 (GeneID 42609)	DRSC16193	0.0318	-0.386	0.202	inactive
CG7080 (GeneID 42609)	DRSC27850	0.827	0.893	-1.63	inactive
CG11275 (GeneID 37534)	DRSC04095	0.277	1.48	0.0507	inactive
Tmem214 (GeneID 34514)	DRSC02924	-0.134	-3.42	1.15	inactive
Tmem214 (GeneID 34514)	DRSC02925	-1.08	0.13	0.904	inactive
Tmem214 (GeneID 34514)	DRSC28172	-0.691	-0.119	-0.615	inactive
CG17127 (GeneID 34489)	DRSC02581	0.365	0.181	-0.362	inactive
CG17127 (GeneID 34489)	DRSC28608	0.942	-0.259	-0.616	inactive
emc (GeneID 38091)	DRSC23238	0.462	1.27	1.32	inactive
emc (GeneID 38091)	DRSC28439	-0.0799	-0.45	0.444	inactive
Root (GeneID 42860)	DRSC15972	0.323	-1.5	-0.568	inactive
CG16824 (GeneID 5740834)	DRSC02525	0.219	0.922	-0.31	inactive
CG16824 (GeneID 5740834)	DRSC41493	0.273	-0.358	-0.415	inactive
Vps33B (GeneID 43077)	DRSC15722	-0.489	0.75	0.752	inactive
Sobp (GeneID 36260)	DRSC07312	-0.653	0.731	0.121	inactive
Sobp (GeneID 36260)	DRSC24534	0.744	1.69	1.2	inactive
wash (GeneID 36311)	DRSC06302	-0.145	0.36	-2.37	inactive
sug (GeneID 36424)	DRSC06855	0.401	0.307	0.671	inactive
sug (GeneID 36424)	DRSC29599	-1.76	1.55	1.04	inactive
Hr39 (GeneID 35398)	DRSC03346	1.07	0.92	-2.35	inactive
Hr39 (GeneID 35398)	DRSC26006	0.615	0.342	-0.235	inactive
Cul5 (GeneID 43434)	DRSC14723	0.128	-0.432	-0.485	inactive
Est-6 (GeneID 39392)	DRSC11162	0.778	-1.51	-0.32	inactive
Est-6 (GeneID 39392)	DRSC39111	-0.305	0.516	0.453	inactive
CG5050 (GeneID 35048)	DRSC02807	-0.193	0.995	0.931	inactive
TfIIB (GeneID 34430)	DRSC03454	0.241	-1.99	0.515	inactive
lncRNA:CR32111 (GeneID 19835082)	DRSC09203	-0.164	0.539	-0.596	inactive
CG16986 (GeneID 38325)	DRSC08502	-2.28	-2.12	-2.97	inactive
CG43779 + hbt	DRSC23270	0.576	-0.325	-0.35	inactive
CG43998 + CG43999	DRSC14605	-0.456	-0.924	-0.937	inactive
fd59A (GeneID 37631)	DRSC04685	-0.319	0.0909	0.181	inactive
fd59A (GeneID 37631)	DRSC25524	0.363	-8.83	0.619	inactive
mei-9 (GeneID 31373)	DRSC18792	0.0758	-0.177	-2.61	inactive
CG12056 (GeneID 31855)	DRSC17796	-4.55	-0.439	0.435	inactive
Iyd (GeneID 39242)	DRSC10614	0.453	0.57	0.466	inactive
Iyd (GeneID 39242)	DRSC10615	-0.204	-0.881	-0.207	inactive
tmod (GeneID 43633)	DRSC14314	-1.61	0.146	0.0209	inactive
tmod (GeneID 43633)	DRSC15076	0.256	0.000281	-3.68	inactive
tmod (GeneID 43633)	DRSC17062	-0.235	-0.607	-0.446	inactive
tmod (GeneID 43633)	DRSC25448	0.57	0.824	-0.023	inactive
CG31524 (GeneID 318781)	DRSC22014	0.85	0.894	0.163	inactive
CG31524 (GeneID 318781)	DRSC28999	-0.441	-0.433	-2.31	inactive
CG32445 (GeneID 261603)	DRSC11678	-1.74	1.91	1.37	inactive
CG17780 + CG17781	DRSC15266	-0.302	0.0295	-1.8	inactive
CG17780 + CG17781	DRSC26816	1.67	0.935	0.216	inactive
Polr3D (GeneID 40002)	DRSC10485	-1.96	0.471	1.06	inactive
Polr3D (GeneID 40002)	DRSC29157	1.63	0.973	1.49	inactive
CG12609 (GeneID 32862)	DRSC19473	1.32	-0.4	0.107	inactive
l(3)87Df (GeneID 49762)	DRSC16982	-0.101	0.457	-5.65	inactive
lncRNA:CR32660 (GeneID 3771836)	DRSC22965	-2.14	-1.35	-1.74	inactive
lncRNA:CR32660 (GeneID 3771836)	DRSC25869	-1.25	-0.412	-0.542	inactive
CG42540 (GeneID 38562)	DRSC08328	0.429	1.15	0.947	inactive
CG42540 (GeneID 38562)	DRSC23011	-0.0884	-0.961	-7.15	inactive
CG42540 (GeneID 38562)	DRSC25814	0.749	-0.344	-0.204	inactive
CG42540 (GeneID 38562)	DRSC28858	-0.179	-0.372	0.359	inactive
baz (GeneID 32703)	DRSC20309	-3.76	-0.0976	-0.00163	inactive
baz (GeneID 32703)	DRSC25558	-0.889	0.493	-7.39	inactive
baz (GeneID 32703)	DRSC40791	-3.34	0.413	-1.58	active
CG3663 (GeneID 37944)	DRSC04402	0.123	0.335	-1.33	inactive
CG3663 (GeneID 37944)	DRSC27007	-0.958	0.0597	-2.3	inactive
CG9021 (GeneID 33818)	DRSC03128	0.194	-0.0259	-0.371	inactive
CG7741 (GeneID 36208)	DRSC07035	-1.11	0.162	-0.14	inactive
CG7251 (GeneID 33791)	DRSC03039	-0.573	-6.35	0.0896	inactive
CG7251 (GeneID 33791)	DRSC28293	-2.58	-2.39	-1.58	inactive
DENR (GeneID 32679)	DRSC20151	-0.243	1.37	-1.72	inactive
